The series in a line: general procedure: Fmoc solid-phase peptide synthesis; Rink amide MBHA resin; HBTU / N-methylmorpholine. Conditions: whole synthesis, molar % yield, scale of the general procedure 0.1 mmol.

End groups of sequences in plain letters are not given here.

For the sequence RPPWRPPW, the isolated yield is 39%.

The sequence RPRRPRLPW yielded an isolated yield of 45%.

(Values after PMC7730182 (International Journal of Molecular Sciences, 2020).)
